Target: UAP56 (cellular splicing factor, DExD-box RNA helicase) (UniProt Q13838)
Assay: SEC; each protein alone on Superose 6 PC 3.2/30 (SMART system); 25 mM HEPES-NaOH pH 7.0, 150 mM NaCl, 1 mM DTT, 5% glycerol

## UAP56 (cellular splicing factor, DExD-box RNA helicase) (from UniProt Q13838 1-428) (natural protein; other documents disagree on this pair)
  stoichiometry N: 2

— PMC5656576 (2017)
